# In ChEMBL document CHEMBL1921799, “Computationally-guided optimization of a docking hit to yield catechol diethers as potent anti-HIV agents” (J Med Chem, 2011):
# System: MT2
# Experiment: Cytotoxicity against human MT2 cells infected with HIV1 NL4.3 by MTT assay
# Type: cell-based
compound,measurement,value
Cc1cc(C#N)cc(C)c1Oc1nc(Nc2ccc(C#N)cc2)nc(N)c1Br [ETRAVIRINE],CC50,11 µM
